The values are deposited in ChEMBL (CHEMBL3988442, “University of Dundee, Small-Polar-MMV Screening Library” (2021)).

Values are the deposited “Percent Effect”, in %.
The record does not define 0% and 100%; most values in the screen are far below 50% and negative numbers occur (in some assays of this library far below -100).
This is part of a subset picked to be rich in strong results.

Mtb glucose medium: 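Whole-cell growth test on Mycobacterium tuberculosis, read after 3 days in glucose-containing 7H9 medium; the read-out is not stated. Compounds at 500 µM. The record gives no direction; compounds that gave an IC50 in retests scored well above the rest, so higher reads as more growth inhibition. Size under these conditions: about 18,000 compounds, about 1,400 of them at 50% or above in at least one test.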
Mtb cholesterol medium: 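Phenotypic screen: M. tuberculosis growth, cholesterol and DPPC medium, 4 days; the read-out is not stated. Compounds at 500 µM. The record gives no direction; compounds that gave an IC50 in retests scored well above the rest, so higher reads as more growth inhibition. About 18,000 compounds were tested under these conditions; 5% (about 900) showed 50% or more at least once.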

{"smiles": "NCc1cc(Oc2ccc(F)cc2)ccn1", "Mtb glucose medium": -13.43, "Mtb cholesterol medium": -23.45}
{"smiles": "Cc1cc(NC(=O)COc2ccc3c(c2)OCO3)no1", "Mtb glucose medium": -8.058, "Mtb cholesterol medium": -14.8}
{"smiles": "CN(C)S(=O)(=O)c1ccc2c(c1)NCC2", "Mtb cholesterol medium": 6.801}
{"smiles": "CCOc1cccc(N2CCNCC2)c1", "Mtb glucose medium": 23.34}
{"smiles": "CCS(=O)(=O)CC(C)Nc1nccnc1C#N", "stereo": "stereo unspecified", "Mtb glucose medium": 5.454}
{"smiles": "CCNC(=O)C(CCSC)NC(=O)Cc1ccccc1", "stereo": "stereo unspecified", "Mtb cholesterol medium": -6.496}
{"smiles": "CN(C)c1cccc(NS(=O)(=O)c2cccs2)n1", "Mtb cholesterol medium": -3.235}
{"smiles": "CC(C)OCCS(=O)(=O)N(C)Cc1ccco1", "Mtb glucose medium": 67.17, "Mtb cholesterol medium": 72.25}
{"smiles": "CC1CCCCN1C(=O)CN(C)CCO", "stereo": "stereo unspecified", "Mtb glucose medium": -5.302}
{"smiles": "Cc1ccc(OCC(N)=O)cc1C", "Mtb glucose medium": 29.78}
{"smiles": "NCC[C@@H]1CCC(=O)N1", "Mtb cholesterol medium": -5.406}
{"smiles": "COc1ncccc1-c1csc(NCCSC)n1", "Mtb glucose medium": 50.32, "Mtb cholesterol medium": 52.03}
{"smiles": "N#Cc1ccc(S(=O)(=O)N2CCCC[C@@H]2CO)cc1", "Mtb glucose medium": 22.71}
{"smiles": "CCOC(=O)Cc1csc(NC(=O)c2ccccn2)n1", "Mtb glucose medium": 1.124}
{"smiles": "CC(C)C[C@H](N)C(=O)N(C)c1ccccc1", "Mtb glucose medium": 64.58, "Mtb cholesterol medium": 28.77}
{"smiles": "Cc1ccc(CC(=O)N2CCN(CCO)CC2)cc1C", "Mtb cholesterol medium": 1.688}
{"smiles": "CC(C)N(C)C(=O)C1CCCNC1", "stereo": "stereo unspecified", "Mtb glucose medium": -8.093}
{"smiles": "CCN(CCc1ccccc1)C(=O)CN1CSCC1=O", "Mtb glucose medium": 31.29}
{"smiles": "Clc1ccc(-c2noc(CN3CCCNCC3)n2)cc1", "Mtb glucose medium": 84.16, "Mtb cholesterol medium": 73.38}
{"smiles": "CNCC(=O)Nc1cccc(OC)c1", "Mtb glucose medium": 18.87}
{"smiles": "COc1ncccc1C(=O)NCCn1ccnc1", "Mtb glucose medium": -6.495, "Mtb cholesterol medium": -11.1}
{"smiles": "CCN1CCCC1CNC(=O)c1cncc(Br)c1", "stereo": "stereo unspecified", "Mtb cholesterol medium": 0.7205}
{"smiles": "CC(CO)S(=O)(=O)Cc1nccn1Cc1ccccc1", "stereo": "stereo unspecified", "Mtb cholesterol medium": 15.93}
{"smiles": "CC(C)CC(C)Oc1cc(CN)ccn1", "stereo": "stereo unspecified", "Mtb glucose medium": 40.22, "Mtb cholesterol medium": 51.12}
{"smiles": "Cc1ccn(CC(=O)N2CCC3(CCC3O)CC2)n1", "stereo": "stereo unspecified", "Mtb glucose medium": 9.771}
{"smiles": "CCNS(=O)(=O)C1CCN(Cc2cccn2C)C1", "stereo": "stereo unspecified", "Mtb glucose medium": 20.93}
{"smiles": "NCC1CN(Cc2c(Cl)cncc2Cl)CCO1", "stereo": "stereo unspecified", "Mtb cholesterol medium": 50.48}
{"smiles": "CN(C(=O)NC1CCCCC1)C1CC[S+]([O-])CC1", "stereo": "stereo unspecified", "Mtb glucose medium": 5.09}
{"smiles": "COc1ccc(NC(=O)c2ccc(S(N)(=O)=O)o2)cc1", "Mtb glucose medium": 53.45}

Some entries from above, unchanged:

{"smiles": "N#Cc1ccc(S(=O)(=O)N2CCCC[C@@H]2CO)cc1", "Mtb glucose medium": 22.71}
{"smiles": "Cc1cc(NC(=O)COc2ccc3c(c2)OCO3)no1", "Mtb glucose medium": -8.058, "Mtb cholesterol medium": -14.8}
{"smiles": "CCNC(=O)C(CCSC)NC(=O)Cc1ccccc1", "stereo": "stereo unspecified", "Mtb cholesterol medium": -6.496}